PubChem BioAssay AID1224833 – University of Georgia, 2016
In all, the deposit lists about 12,000 reagents; this is a random part of them. About 5,600 of them (46%) count as active. 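Active calls cover z-scores past 1 in both directions, so they include lowered as well as raised rotavirus replication.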 A number with no mark means an inactive call. No sequences are given here.

- Purpose: 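Human genes whose knock-down alters rotavirus replication in monkey cells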 (primary screen)
- Cells: monkey MA104 kidney cells
- Knock-down reagent: siRNA pool against human genes, 50 nM
- Duration: 48 h knock-down before infection; read 24 h after infection
- Treatment: infection with rotavirus strain RV3 two days after transfection; infectious dose for this stage not given
- Detection: 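Rotavirus antigen per well by fluorescent immunoassay, normalised to non-targeting control wells on each plate and given as a standard z-score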
- Direction: z-score vs non-targeting control: higher = more rotavirus replication than with non-targeting control
- Active means: In these data the active calls have z-score vs non-targeting control at about -1 or lower, or at about 1 or higher
- Meaning of the calls: active = z-score beyond 1 either way; inactive = z-score within 1 of zero

no.	Target gene	z-score vs non-targeting control
1	OR4K17	1 (active)
2	ZNF30	-1.64 (active)
3	TYW3	-1.7 (active)
4	FAM234A	-2.58 (active)
5	MRPS26	-0.719
6	DNAJC19	1.96 (active)
7	CDCP1	-0.921
8	DARS1	1.6 (active)
9	C12orf57	-0.987
10	SCGB1C1	1.04 (active)
11	HTR5A	-2.31 (active)
12	GSG1L	-0.751
13	DPY30	-1.14 (active)
14	AAAS	-0.634
15	DOCK5	0.176
16	CXCR3	1.21 (active)
17	FAM177B	1.63 (active)
18	CUTA	0.583
19	FCGR1A	-1.76 (active)
20	SNX5	-2.54 (active)
21	RAPGEFL1	0.12
22	PHLDB1	-1.35 (active)
23	R3HDM2	-1.45 (active)
24	CCDC25	-0.743
25	VAV2	1.17 (active)
26	RTCB	-1.81 (active)
27	MRPL54	0.789
28	EPPIN	-0.424
29	CLIP3	-1.35 (active)
30	FKBP5	1.52 (active)
31	WFIKKN1	0.629
32	PAQR3	-1.01 (active)
33	FYTTD1	-0.563
34	NPAP1	1
35	PIGB	-1.35 (active)
36	OPRPN	1.13 (active)
37	MCU	-0.89
38	GPR63	-1.91 (active)
39	NDUFA13	0.855
40	SLC5A5	-3.02 (active)
41	SYNJ2BP	0.459
42	KIAA0753	-0.403
43	ADCY1	-1.04 (active)
44	PNPO	0.891
45	LRRC4C	0.866
46	BHLHE22	0.647
47	RAB1B	0.692
48	CCN4	-0.476
49	POLI	-1.27 (active)
50	POR	1.81 (active)
51	JPH1	-1.68 (active)
52	SPATA8	0.468
53	C10orf71	-0.899
54	PF4V1	0.764
55	PIAS3	-0.784
56	PWP2	-0.0415

11 entries from above, reformatted:
Target gene	z-score vs non-targeting control
OPRPN	1.13 (active)
MCU	-0.89
GPR63	-1.91 (active)
NDUFA13	0.855
SLC5A5	-3.02 (active)
SYNJ2BP	0.459
KIAA0753	-0.403
ADCY1	-1.04 (active)
PNPO	0.891
LRRC4C	0.866
BHLHE22	0.647

The listing continues:
no.	Target gene	z-score vs non-targeting control
57	CWC22	-1.7 (active)
58	DPY19L2	-1.34 (active)
59	PREX2	1.02 (active)
60	ERLIN1	0.559
61	RIT2	-2.41 (active)
62	NDUFV2	0.523
63	GPR180	1.14 (active)
64	CNNM4	0.658
65	OBSL1	-1.03 (active)
66	SERPINE2	0.185
67	SHANK2	-2.1 (active)
68	ETV4	-1.01 (active)
69	NHLH2	0.608
70	TFEC	0.786
71	DAZ3	-1.15 (active)
72	RTN4RL1	-0.321
73	FGF21	-1.77 (active)
74	ODAD2	1.04 (active)
75	OR51G1	-1.15 (active)
76	FCN3	-0.39
77	POMC	0.656
78	KRT36	1.77 (active)
79	KRTAP10-10	-1.45 (active)
80	FMNL1	0.231
81	HELZ2	1.63 (active)
82	CIDEB	0.612
83	FNDC1	0.257
84	PRF1	0.987
85	CREBBP	1.83 (active)
86	TBXT	-0.668
87	MRPL55	-0.216
88	RARRES2	0.524
89	C8A	-0.0536
90	ADGRL2	-1.41 (active)
91	TOP3B	-1.76 (active)
92	TTC23L	-2.03 (active)
93	ST6GALNAC5	-1.02 (active)
94	UCHL5	1.19 (active)
95	MIER2	-0.0586
96	NTN4	-0.319
97	ZNF331	0.573
98	DEFB103B	-0.418
99	C1QTNF12	-1.15 (active)
100	SLC25A17	0.64
101	OR8S1	-0.205
102	ARAP3	-0.846
103	ZNF467	-1.08 (active)
104	CYP2B6	0.892
105	NECTIN4	-2.31 (active)
106	TTC12	-0.266
107	SBF2	0.64
108	TMEM190	-1.26 (active)
109	MXRA5	-2.15 (active)
110	H2BC5	-0.009
